{
  "source": "patent US20040101534A1",
  "about": "(priority 2002, published 2004)",
  "key": {"[1]": {"test_system": "T2 cells loaded with pp65495-503", "assay": "Chromium release assay of in vitro stimulated splenocytes from immunized transgenic mice, peptide-loaded T2 targets"}, "[2]": {"assay": "Solubility in saline with DMSO", "conditions": "physiologic saline with minimal DMSO"}},
  "data": [
    {"molecule": "KSSYIKANSKFIGITEAAANLVPMVATV", "values": [
      {"measurement": "CTL response", "setting": "[1]; subcutaneous, 50 or 100 nmol, without CpG ss-ODN adjuvant", "value": "not able to stimulate a vigorous CTL response"}
    ]},
    {"molecule": "CSCC[C@H](NC(=O)[C@@H]1CCCN1C(=O)[C@@H](NC(=O)[C@H](CC(C)C)NC(=O)[C@H](CC(N)=O)NC(=O)[C@H](C)NC(=O)[C@H](C)NC(=O)[C@H](C)NC(=O)[C@H](CCCCN)NC(=O)[C@H](CC(C)C)NC(=O)[C@@H](NC(=O)[C@H](Cc1c[nH]c2ccccc12)NC(=O)[C@H](C)NC(=O)[C@H](C)NC(=O)[C@@H](NC(=O)[C@H](CC1CCCCC1)NC(=O)[C@H](CCCCN)NC(=O)[C@H](C)NC(=O)[C@H](CO)NC(=O)[C@H](CO)NC(=O)[C@@H](N)CCCCN)C(C)C)[C@@H](C)O)C(C)C)C(=O)N[C@H](C(=O)N[C@@H](C)C(=O)N[C@H](C(=O)N[C@H](C(=O)O)C(C)C)[C@@H](C)O)C(C)C", "values": [
      {"measurement": "solubility", "setting": "[2]", "value": "favorable solubility"}
    ]},
    {"molecule": "VSTIVPYIGPALNIAAANLVPMVATV", "values": [
      {"measurement": "effect of CpG ss-ODN on CTL response", "setting": "[1]; 50 nmol peptide alone vs with 25 μg ss-ODN #1826, subcutaneous, compared with KTet830V", "value": "not as dramatic"},
      {"measurement": "peptide-specific responses", "setting": "[1]; 50 nmol subcutaneous alone or with 25 μg CpG ss-ODN, after one immunization", "value": "easily measured"}
    ]}
  ]
}
